# Test results as given in PubChem BioAssay AID485275 (NMMLSC, 2010).
# Only a part is listed here, and it is no random draw. Calls of active or inactive are those of the source.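 Rule for the calls: active = plate passing quality check with inhibition over a set limit, or well fluorescence over plate mean plus 4 SD; inactive = the rest.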
# Assay: inhibitors of Candida efflux pumps in yeast, primary screen, S. cerevisiae, Nile Red, multiplex (AID 485275);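 note: Nile Red retained in pooled yeast measured as flow cytometry median fluorescence; 0% = buffer negative control and 100% = Enniatin B positive control; higher means more Nile Red kept so more efflux inhibition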
# Settings: S. cerevisiae Candida pump triplex, at 10 µM, hits give high values
row,SMILES,inhibition
1,CN(CCCl)Cc1cc(Cl)c(NC2=NCCN2)c(Cl)c1,inactive: 0.1%
2,CCOP(=O)(Nc1ccc(C)cn1)OCC,inactive: 0.23%
3,O=P1(Nc2ccccn2)COc2ccccc2OC1,inactive: 0.2%
4,CCC1=CC2Cc3nc4ccc(Cl)cc4c(N)c3C(C1)C2 (stereo not given),inactive: 0%
5,CCOP(=O)(NC(=NC(C)c1ccccc1)NC(C)c1ccccc1)OCC (stereo not given),inactive: 0.59%
6,Clc1n[nH]nc1-c1nn[nH][15n]1,inactive: 0.05%
7,CC(C)(C)C(=O)NC(Sc1ncccn1)C(Cl)(Cl)Cl (stereo not given),inactive: -0.03%
8,COc1ccccc1CNC(=O)COC(=O)C(O)(c1ccccc1)c1ccccc1,inactive: -0.1%
9,O=[As](O)(c1ccccc1Br)c1ccccc1Br,inactive: 0.6%
10,CC1(CBr)Cn2c(nc3ccccc3c2=O)S1 (stereo not given),inactive: 0.12%
11,CC(C)/C=N\N=C(\N)N[N+](=O)[O-],inactive: -0.09%
12,CN(C(=O)Cc1ccc(Cl)c(Cl)c1)[C@@H]1CCCC[C@H]1N1CCCC1,inactive: 0.04%
13,Cc1nn(-c2ccccc2)c2c1P(=O)(N1CCOCC1)N(C)C(c1ccccc1)=N2 (stereo not given),inactive: 0.07%
14,CC1CCC(C(C)C)C(OP(=O)(Nc2ccccn2)c2ccccc2)C1 (stereo not given),inactive: 0.02%
15,Cc1ccc(C(=O)OC2CN3CCC2CC3)cc1 (stereo not given),inactive: 0.32%
16,O=C(/C=C/c1ccccc1)OC1CN2CCC1CC2 (stereo not given),inactive: -0.17%
17,CN(C)C1(CNC(=O)c2ccc(S(C)(=O)=O)cc2)CCCCC1,inactive: 0.04%
18,O=P1(Nc2ncccn2)COc2ccccc2OC1,inactive: 0.18%
19,O=P1(Nc2ccc(Br)cn2)COc2ccccc2OC1,inactive: -0.11%
20,NS(=O)(=O)c1cccc(NC(=O)COC(=O)C(O)(c2ccccc2)c2ccccc2)c1,inactive: 0.07%
21,O=[As](O)(c1cccs1)c1cccs1,inactive: 0.33%
22,Cc1ccc(OCC(=O)OC2CN3CCC2CC3)cc1 (stereo not given),inactive: 0.03%
23,Nc1cccc([As](=O)(O)c2ccccc2)c1,inactive: 0.12%
24,CS(=O)(=O)c1cc([N+](=O)[O-])c2no[n+]([O-])c2c1,inactive: 0.2%
25,CCOP1(=S)c2c(C)nn(CCC#N)c2N=C(c2ccccc2F)N1C (stereo not given),inactive: -0.04%

row,SMILES,inhibition
1,O=P(Nc1nccs1)(c1ccccc1)c1nc2ccccc2s1 (stereo not given),active: 0.4%
2,O=P(Nc1nccs1)(Oc1ccccc1)Oc1ccccc1,inactive: -0.07%
3,Nc1ccccc1[As](=O)(O)c1ccccc1,inactive: 0.18%
4,O=C(O)COc1ccc([As](=O)(O)O)cc1[N+](=O)[O-],inactive: 0.4%
5,NC(=O)Nc1ccc([As](=O)(O)O)cc1,inactive: -0.25%
6,CN(C)C(=O)c1cc([N+](=O)[O-])cc2c1-c1c(cc([N+](=O)[O-])cc1[N+](=O)[O-])C2=O,inactive: -0.01%
7,O=[N+]([O-])c1ccc2c(c1)nnn2O,inactive: -0.1%
8,CN(C(=O)Cc1ccc(Cl)c(Cl)c1)[C@H]1CC[C@@]2(CCCO2)C[C@@H]1N1CCCC1,inactive: 0.16%
9,N#CCCN(C(=O)COC(=O)C(O)(c1ccccc1)c1ccccc1)c1ccc(F)cc1,inactive: 0.02%
10,CN(C(=O)Cc1ccccc1)[C@@H]1CC[C@]2(CCCO2)C[C@H]1N1CCCC1,inactive: 0.19%
11,CCOP1(=S)c2c(C)nn(CCC#N)c2N=C(c2ccc(F)cc2)N1C (stereo not given),inactive: -0.05%
12,COc1cc(C(=O)NCC2(N3CCOCC3)CCCCC2)cc(Cl)c1OC(C)C,inactive: 0.08%
13,O=[As](O)(O)c1cccnc1,inactive: -0.13%
14,CS(=O)(=O)c1ccc(Cl)c(NC(=O)COC(=O)C(O)(c2ccccc2)c2ccccc2)c1,inactive: -0.11%
15,O=C(OC1CN2CCC1CC2)c1ccc(Cl)cc1 (stereo not given),inactive: -0.16%
16,O=[As](O)(c1cccc(O)c1)c1cccc(O)c1,inactive: -0.13%
17,Cc1cccc(OCC(=O)OC2CN3CCC2CC3)c1 (stereo not given),inactive: -0.23%
18,CCCOP(=S)(Nc1nc(N)cc(=O)[nH]1)OCCC,inactive: 0%
19,Nc1cccc2c([As](=O)(O)O)cccc12,inactive: 0.12%
20,Cc1ccc(NCCc2c([N+](=O)[O-])cc([N+](=O)[O-])cc2[N+](=O)[O-])cc1,inactive: 0.08%
21,COc1cc(C2NCCC3(OCCO3)C2(C)C)cc(OC)c1OC (stereo not given),inactive: -0.13%
22,CCOP(=O)(Nc1cccc2ccccc12)OCC,inactive: 0.3%
23,O=C(OC1CN2CCC1CC2)C12CC3CC(CC(C3)C1)C2 (stereo not given),inactive: -0.1%
24,Cc1cc(=O)[nH]c(N[N+](=O)[O-])n1,inactive: 0.06%
25,Cc1c2c(nc3ccccc13)SC(C(Cl)Cl)C2 (stereo not given),inactive: -0.04%

row,SMILES,inhibition
1,COc1ccc2nc(NP(=O)(c3ccccc3)c3ccccc3)sc2c1,inactive: 0.01%
2,COc1cc(I)ccc1[As](=O)(O)O,inactive: -0.08%
3,COc1ccc(N/C(=N/P(=O)(N2CCOCC2)N2CCOCC2)N2CCOCC2)cc1,inactive: -0.07%
4,O=[As](O)(c1ccc(O)cc1)c1ccccc1O,inactive: -0.01%
5,C[As](=O)(O)c1cccc(C(=O)O)c1,inactive: -0.09%
6,COc1cc(C(=O)NCC2(N3CCOCC3)CCCCC2)ccc1OCC(C)C,inactive: 0.28%
7,Cc1ccc2nc3c(c(C)c2c1)CC(C(Cl)Cl)S3 (stereo not given),inactive: 0.2%
8,Cc1ccc(OP(=O)(Nc2ccc([N+](=O)[O-])cn2)Oc2ccc(C)cc2)cc1,inactive: -0.02%
9,CC(C)c1ccc(OP(=O)(Nc2ccccn2)Oc2ccccc2F)cc1 (stereo not given),inactive: 0.09%
10,CCN(CC)C(=S)SC(NC=O)C(Cl)(Cl)Cl (stereo not given),inactive: 0.06%
11,CC(C)NC(=O)NP(=O)(Oc1ccccc1)Oc1ccccc1,inactive: -0.12%
12,O=[N+]([O-])c1cc([N+](=O)[O-])c(-c2ccn[nH]2)s1,inactive: -0.14%
13,CCOC(=O)Nc1ccc([As](=O)(O)O)c(O)c1,inactive: 0.01%
14,Cc1cc(SC(NC(=O)c2ccccc2)C(Cl)(Cl)Cl)nc(C(C)C)n1 (stereo not given),inactive: -0.18%
15,CCOC(=O)Nc1cccc([As](=O)(O)O)c1,inactive: -0.07%
16,O=[N+]([O-])c1ccc(Nc2ccc(Oc3ccc([N+](=O)[O-])cc3[N+](=O)[O-])cc2)c([N+](=O)[O-])c1,inactive: -0.05%
17,O=P(Nc1ccccn1)(c1cccc2ccccc12)c1cccc2ccccc12,inactive: 0.08%
18,Cc1cc(SC(NC=O)C(Cl)(Cl)Cl)ncn1 (stereo not given),inactive: 0.29%
19,COP1(=S)c2c(C)nn(CCC#N)c2N=C(c2ccc(F)cc2)N1C (stereo not given),inactive: 0.01%
20,O=C(COc1ccccc1)OC1CN2CCC1CC2 (stereo not given),inactive: 0.13%
21,O=C(Nc1ccncc1[N+](=O)[O-])c1ccc([N+](=O)[O-])cc1[N+](=O)[O-],inactive: -0.11%
22,CCOC(=O)c1ccc(NC(=O)C(C)(CCl)SC)cc1 (stereo not given),inactive: 0.06%
23,O=C(OC1CN2CCC1CC2)c1cccc([N+](=O)[O-])c1 (stereo not given),inactive: -0.06%
24,CCC(C)N(CC(C)C)C(=S)SC(NC(C)=O)C(Cl)(Cl)Cl (stereo not given),inactive: 0.03%
25,COc1ccc(C2=NCC(CBr)S2)cc1 (stereo not given),inactive: 0.05%

row,SMILES,inhibition
1,O=[N+]([O-])c1cccc2n[nH]nc12,inactive: -0.15%
2,CC(=O)N1C2C3N(C(C)=O)C1C1N(C(C)=O)C(C(N1C(C)=O)N3C(C)=O)N2C(C)=O,inactive: -0.11%
3,Cc1ccc(NP(=O)(Oc2ccccc2)Oc2ccccc2)nc1,inactive: 0.69%
4,CCc1nc2c(n1)c1c(non1O)c1c2no[n+]1[O-],inactive: -0.07%
5,O=[N+]([O-])c1cc([N+](=O)[O-])c(CCNc2ccccc2)c([N+](=O)[O-])c1,inactive: 0.37%
6,Nc1ccc([As](=O)(O)c2ccc(N)cc2)cc1,inactive: -0.07%
7,C[N+]1=C2C=CC=CC=C2SC12C([N+](=O)[O-])=CC([N+](=O)[O-])=C[C-]2[N+](=O)[O-] (stereo not given),inactive: 0.39%
8,CCN(/C(=N/P(=O)(N1CCOCC1)N1CCOCC1)N1CCOCC1)c1ccc(OC)cc1,inactive: -0.03%
9,CC(C)=N/N=C(\N)N[N+](=O)[O-],inactive: -0.12%
10,CN(C)C(=O)OCCc1n(C)cc[n+]1C,inactive: 0.08%
11,CC1CCN(C(=O)Oc2c(Cl)cc(Cl)c3cccnc23)CC1,inactive: -0.06%
12,O=C(Nc1cc([As](=O)(O)O)ccc1O)c1ccccc1,inactive: 0.09%
13,CC(C)(C)C(=O)NC(Sc1ccncn1)C(Cl)(Cl)Cl (stereo not given),inactive: 0.03%
14,O=[N+]([O-])c1ncn(CCn2ncnc2[N+](=O)[O-])n1,inactive: -0.05%
15,O=[N+]([O-])c1cccc(NC2=NCC(CBr)S2)c1 (stereo not given),inactive: -0.13%
16,O=C(O)CNc1ccc([As](=O)(O)O)cc1,inactive: 0.03%
17,O=C(O)c1ccccc1[As](=O)(O)O,inactive: -0.81%
18,CC(=O)Nc1ccc([As](=O)(O)O)cc1,inactive: -0.16%
19,O=P(Nc1nc2ccc(Cl)cc2s1)(c1ccccc1)c1ccccc1,inactive: 0.17%
20,CCOP(=O)(Nc1ccccc1)OCC,inactive: 0.06%
21,Cc1cc(SC(NC(=O)c2ccc(F)cc2)C(Cl)(Cl)Cl)ncn1 (stereo not given),inactive: 0.05%
22,Cc1ccc(NP(=O)(Oc2ccccc2F)Oc2ccccc2F)nc1,inactive: -0.17%
23,CN(C(=O)Cc1ccc(Cl)c(Cl)c1)[C@H]1CCCC[C@@H]1N1CCCC1,inactive: 0.29%
24,O=[N+]([O-])c1cc([N+](=O)[O-])c(CCN2CCOCC2)c([N+](=O)[O-])c1,inactive: 0.04%
25,CCN(N=Nc1nonc1N)c1nonc1N,inactive: -0.13%
